The values below are quoted from earlier work in patent publication US20030133929A1 (priority 2002, published 2003).

The test system of this data set is Sinbis, Sendai and VSV viruses. The settings on record: room temperature; cited from earlier work.

As for `CCCCOP(=O)(OCCCC)OCCCC`, the “minimum time for inactivation of the viruses” value is 2 h.
